Values from PubChem BioAssay AID624099 (ICCB-Longwood, 2012)
This is one part, drawn at random, of about 21,000 reagents. 497 of them (2.4%) were called active. 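Higher z means weaker E2 silencing; only reporter increases were scored, and knock-downs that hurt cell survival may mask genuine repressor factors.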 Entries without a mark were called inactive.

- Purpose: 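Human genes that papillomavirus E2 requires to repress the HPV18 LCR promoter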 (primary screen)
- Cell system: human C33A cervical carcinoma cells (HPV-negative) stably expressing BPV1 E2 and an HPV18 LCR luciferase reporter
- Reagents: siRNA pool against human genes, 40 nM
- Timing: 72 h
- Detection: 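Per-well luciferase luminescence, z-scored on each plate against the plate mean and SD with control wells left out, then averaged across three replicate plates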
- Reading the numbers: mean z-score and z-score: higher = stronger reporter signal, weaker E2 silencing
- Rule for the call: 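Mean z ≥ 2 together with z ≥ 2 in two or more of the three replicates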

After knock-down of ART4 [SID134314484] the results were mean z-score 0.34; z-score, replicate A = 0.41; z-score, replicate B = 0.39; z-score, replicate C = 0.22. Depletion of SELP [SID134313009] resulted in: mean z-score 0.34; z-score, replicate A = 0.22; z-score, replicate B = 0.28; z-score, replicate C = 0.51. MEPCE [SID134320619] gave mean z-score 0.07; z-score, replicate A = -0.05; z-score, replicate B = 0.3; z-score, replicate C = -0.05. PPIL2 [SID134312323] showed mean z-score 0.96; z-score, replicate A = 0.87; z-score, replicate B = 1.02; z-score, replicate C = 1. With knock-down of ETNPPL [SID134313554], the record shows mean z-score 0.91; z-score, replicate A = 1.05; z-score, replicate B = 0.95; z-score, replicate C = 0.74. Knock-down of SMTN [SID134321376] gave: mean z-score 0.37; z-score, replicate A = 0.35; z-score, replicate B = 0.59; z-score, replicate C = 0.18.

For CHRNB4 [SID134311564], the values are mean z-score -0.24; z-score, replicate A = -0.3; z-score, replicate B = -0.1; z-score, replicate C = -0.33. EIF4G1 [SID134323259] showed mean z-score 0.26; z-score, replicate A = 0.25; z-score, replicate B = 0.45; z-score, replicate C = 0.09. For LRRC37B [SID134319207], the values are mean z-score 2.41 (active); z-score, replicate A = 2.23; z-score, replicate B = 2.44; z-score, replicate C = 2.57. Knock-down of LOC440265 (retired record) [SID134328531] gave: mean z-score -0.46; z-score, replicate A = -0.31; z-score, replicate B = -0.25; z-score, replicate C = -0.83. Silencing of LINC01226 [SID134327035] came out at: mean z-score -0.75; z-score, replicate A = -0.9; z-score, replicate B = -0.73; z-score, replicate C = -0.62. CSTL1 [SID134321247] gave mean z-score 1.02; z-score, replicate A = 0.63; z-score, replicate B = 0.9; z-score, replicate C = 1.54.

Entries listed so far whose gene name begins with S or s (2):
SELP [SID134313009] → mean z-score: 0.34; z-score, replicate A: 0.22; z-score, replicate B: 0.28; z-score, replicate C: 0.51
SMTN [SID134321376] → mean z-score: 0.37; z-score, replicate A: 0.35; z-score, replicate B: 0.59; z-score, replicate C: 0.18
